Compound potency records, mixed from different reports. Data source: NIAID ChemDB in PubChem.

Common to all: growth or infection tests; agent: Mycobacterium tuberculosis

MIC50, MIC90 and the like: level of inhibition, or share of isolates inhibited. Blank or dashed fields: not listed here. MIC bound comes from a single tested concentration. ECn is the concentration giving n% inhibition of infection, replication or growth. Neighbouring rows are from separate reports. Percent inhibition refers to the dose given; in toxicity tests it is the harm to the cells.

| compound | read by | endpoint | tested at | cells | strain or isolate | changes | setting | value |
|---|---|---|---|---|---|---|---|---|
| Cc1c(Cc2ccccc2Br)cnc2nc(N)nc(N)c12 | resazurin / fluorescence | MIC90 |  |  | H37Rv |  |  | 1.25 µM |
| Cc1ccc(S(=O)(=O)NC2CCCCCCC2)cc1 | BACTEC | MIC bound |  |  | H37Rv |  |  | >12.5 µg/mL |
| NC(=S)c1cc(SCc2ccc(Br)cc2)ccn1 |  | MIC |  |  | CNCTC MY331/88 |  |  | 30.9 µM |
| CCCCc1ccc(NC(=S)c2cccc(Br)c2)cc1 |  | MIC |  |  | My 331/88 |  |  | 32 µM |
| CC(C)(C)c1ccccc1OCCCON1C(N)=NC(N)=NC1(C)C | resazurin / fluorescence | MIC90 |  |  | H37Rv |  |  | 0.3 µM |
| COc1ccc(CSc2nc3ccc(C)cc3[nH]2)cc1 |  | MIC |  |  | MY 332/88 |  |  | 32 µM |
| Fc1ccc(NCc2cc3ccccc3nc2Cl)cc1 |  | MIC |  |  | H37Ra |  |  | >400 µg/mL |
| N#Cc1cc(SCc2ccc([N+](=O)[O-])cc2[N+](=O)[O-])ccn1 |  | MIC |  |  | CNCTC MY331/88 |  |  | 61.66 µM |
| O=C(NCc1ccc(N2CCN(S(=O)(=O)C(F)(F)F)C=N2)c(F)c1)c1c(C(F)F)nc2cc(F)c(Cl)cn12 | fluorescence | EC50 |  |  |  |  |  | 0.00417 µM |
| COc1cc2ccc3c4c(OC)cc(OC)c(OC)c4c[n+](C)c3c2cc1OC | BACTEC | inhibition | 12.5 µg/mL |  | H37Rv |  |  | 66% |
| CC1=Nc2ccccc2/C(=C(\O)N=N)N1N | BACTEC | MIC bound |  |  | H37Rv |  |  | >12.5 µg/mL |
| CCc1nc2ccc(Cl)cn2c1C(=O)NCc1ccc(N2CCN(Cc3nc(C(F)(F)F)cs3)C=N2)cc1 | fluorescence | EC50 |  |  |  |  |  | 0.13 µM |
| Cc1ccc2nc(SCc3cccc(C(N)=S)c3)[nH]c2c1 |  | MIC |  |  | MY 332/88 |  |  | 32 µM |
| CCn1cc(C(=O)O)c(=O)c2cc(F)c(N3CCN(CC(=O)c4ccc(F)cc4)CC3)cc21 |  | MIC |  | VERO | H37Rv |  |  | 6.25 µg/mL |
| COC1=CC2C(=NC(C)=C2C(=O)NCc2ccc(N3CCN(S(=O)(=O)C(F)(F)F)C(OC)=N3)cc2)N=C1 | fluorescence | EC50 |  |  |  |  |  | 0.01 µM |
| CC(C)c1ccc(NC(=S)c2cccc([N+](=O)[O-])c2)cc1 |  | MIC |  |  | My 331/88 |  |  | 62.5 µM |
| CC(=O)N[C@@H](CS)C(=O)O |  | MIC |  |  | H37Rv |  |  | >100 µg/mL |
| Cc1ccc2[nH]c(=S)[nH]c2c1 |  | MIC |  |  | MY 332/88 |  |  | 500 µM |
| Cc1ccc(NCCO)c2c(=O)c3ccccc3sc12 | BACTEC | inhibition | 12.5 µg/mL |  | H37Rv |  |  | -5% |
| NC1=NC2(CCCCC2)N(OCCCOc2ccc3ccccc3c2)C(N)=N1 | resazurin / fluorescence | MIC90 |  |  | H37Rv | Overexpressing DHFR |  | 2 µM |
| CN1CCN(C)C1=Nc1ccccc1/C=C/C=C1C(=O)N(C)C(=O)N(C)C1=O | BACTEC | inhibition | 12.5 µg/mL |  | H37Rv |  |  | 0% |
| CCC(S)CC(=O)OC |  | MIC |  |  | H37Rv |  |  | 25 µg/mL |
| CCCCCCCCCCC1SCC(=O)N1c1nncs1 | BACTEC | inhibition | 12.5 µg/mL |  | H37Rv |  |  | 89% |
| Cc1ccc2nc(SCc3c(F)cccc3[N+](=O)[O-])[nH]c2c1 |  | MIC |  |  | MY 332/88 |  |  | 125 µM |
| CCn1cc(C(=O)O)c(=O)c2cc(F)c(N3CCN(C/C(=N/O)c4ccccc4)CC3)nc21 |  | inhibition | 6.25 µg/mL |  | H37Rv |  |  | 36% |
| Cc1ccc2nc(SCc3ccc(Cl)c(Cl)c3)[nH]c2c1 |  | MIC |  |  | MY 332/88 |  |  | >32 µM |
| N[C@@H](C(=O)N[C@@H]1C(=O)N2C(C(=O)O)=C(Cl)CS[C@H]12)c1ccccc1 |  | MIC |  |  | H37Ra |  |  | 256 µg/mL |
| NC(=S)N(Cc1cc2ccccc2nc1Cl)c1ccc(F)c(Cl)c1 |  | MIC |  |  | H37Ra |  |  | 50 µg/mL |
| CCC(S)CC(=O)O |  | MIC |  |  | H37Rv |  |  | 10 µg/mL |
| Cc1ccc2nc(SCc3ccc(C#N)cc3)[nH]c2c1 |  | MIC |  |  | MY 332/88 |  |  | 62 µM |
| NNC(=O)c1ccccc1 |  | MIC |  |  | Mtb C-31 |  |  | 4 µg/mL |
| NC(=S)N(Cc1cc2ccccc2nc1Cl)c1ccc([N+](=O)[O-])cc1 |  | MIC |  |  | H37Ra |  |  | 200 µg/mL |
| NC1CCN(c2c(F)cc3c(=O)c(C(=O)O)cn(C4CC4)c3c2Cl)C1 |  | inhibition | 0.1 µg/mL | Macrophages | H37Rv |  | inside macrophages | 60% |
| Cc1ccc2nc(SCc3cccc(Cl)c3)[nH]c2c1 |  | MIC |  |  | MY 332/88 |  |  | 62 µM |
| Nc1c(C(=O)O)c(Br)cc2c1C(=O)c1ccccc1C2=O | BACTEC | MIC bound |  |  | H37Rv |  |  | >12.5 µg/mL |
| COc1cccc2c1c[n+](C)c1c3cc4c(cc3ccc21)OCO4 | BACTEC | MIC |  |  | H37Rv |  |  | >12.5 µg/mL |
| Cc1ccc(CSc2ccnc(C(N)=S)c2)cc1 |  | MIC |  |  | CNCTC MY331/88 |  |  | 15.85 µM |
| O=C(NCc1ccc(N2CCN(S(=O)(=O)C(F)(F)F)C=N2)c(F)c1)c1c(C(F)F)nc2ccc(Cl)cn12 | fluorescence | EC50 |  |  |  |  |  | 0.00407 µM |
| NC(=S)c1cc(SCc2ccc(F)cc2)ccn1 |  | MIC |  |  | CNCTC MY331/88 |  |  | 7.94 µM |
| CCOC(=O)[C@@H](N)CSCC |  | MIC |  |  | H37Rv |  |  | >100 µg/mL |
| S=C(Nc1ccc(C2CCCCC2)cc1)c1cccc(Cl)c1 |  | MIC |  |  | My 331/88 |  |  | 32 µM |
| O=C1CCc2ccc(cc2)Oc2cc(ccc2O)CCCO1 | resazurin | EC50 |  |  | H37Rv |  |  | >100 µg/mL |
| Cc1nc(-c2nc(C(=O)NCCC[S+](C)C)cs2)cs1.[Cl-] | BACTEC | MIC |  |  | H37Rv |  |  | ≥12.8 µg/mL |
| CCCCCCCCC(OC)C(=O)O |  | MIC |  |  | H37Rv |  |  | 240 µM |
| CCCCCCCCN(CCCCCCCC)CC(O)c1ccc2c(c1)Sc1ccccc1O2.Cl | BACTEC | MIC bound |  |  | H37Rv |  |  | >12.5 µg/mL |
| CCC1=C(C(=O)NCc2cc(F)c(N3CCN(S(=O)(=O)C(F)(F)F)C=N3)c(F)c2)C2C=C(Cl)C=NC2=N1 | fluorescence | EC50 |  |  |  |  |  | 0.005 µM |
| CCSSSCC |  | MIC |  |  | H37Rv |  |  | >100 µg/mL |
| CC(C)c1ccc(NC(=S)c2ccccc2)cc1 |  | MIC |  |  | My 331/88 |  |  | 32 µM |
| CON/C=C(C#N)/C=C/C=Nc1ccc(S(=O)(=O)Nc2onc(C)c2C)cc1 | BACTEC | inhibition | 12.5 µg/mL |  | H37Rv |  |  | 4% |
| COc1cc2ccc3c4c(OC)cc5c(c4c[n+](C)c3c2cc1OC)OCO5 | BACTEC | MIC |  |  | H37Rv |  |  | >12.5 µg/mL |
| NC(=S)c1cc(SCc2ccc(Cl)cc2)ccn1 |  | MIC |  |  | CNCTC MY331/88 |  |  | 7.94 µM |
| CCc1ccccc1OCCCON1C(N)=NC(N)=NC1(C)C | resazurin / fluorescence | MIC90 |  |  | H37Rv |  |  | 0.5 µM |
| NC(=S)N(Cc1cc2ccccc2nc1Cl)c1ccccc1 |  | MIC |  |  | H37Ra |  |  | 200 µg/mL |
| COc1cc2c[n+](C)c3c4cc5c(cc4ccc3c2cc1O)OCO5 | BACTEC | MIC |  |  | H37Rv |  |  | >12.5 µg/mL |
| O=C(Nc1ccc(Cl)cc1)Nc1nnc2nc(CC(=O)c3cccc([N+](=O)[O-])c3Cl)c(=O)[nH]n12 | BACTEC | inhibition | 12.5 µg/mL |  | H37Rv |  |  | 30% |
| CCOc1ccc2c(c[n+](C)c3c4cc5c(cc4ccc23)OCO5)c1OC | BACTEC | MIC |  |  | H37Rv |  |  | <12.5 µg/mL |
| Cc1c(C(=O)/C=C/c2ccccc2[N+](=O)[O-])[n+](=O)c2ccccc2n1[O-] | BACTEC | inhibition | 12.5 µg/mL |  | H37Rv |  |  | 99% |
| O=[N+]([O-])c1ccc(NCc2cc3ccccc3nc2Cl)cc1 |  | MIC |  |  | H37Ra |  |  | >400 µg/mL |
| Cc1ccc2nc(SCc3cccc(C(F)(F)F)c3)[nH]c2c1 |  | MIC |  |  | MY 332/88 |  |  | 32 µM |
| NC(=S)c1cc(SCc2cccc(Br)c2)ccn1 |  | MIC |  |  | CNCTC MY331/88 |  |  | 7.94 µM |
| O=c1cc(-c2ccccc2)c2cc(Cl)ccc2o1 | resazurin | MIC90 |  |  | H37Rv |  |  | >100 µg/mL |
| Oc1cc(O)c2c(c1)O[C@H](c1ccc(O)c(O)c1)[C@H](O)[C@H]2c1c(O)cc(O)c2c1O[C@H](c1ccc(O)c(O)c1)[C@H](O)C2 | BACTEC | inhibition | 12.5 µg/mL |  | H37Rv |  |  | -3% |
| N#Cc1cc(SCc2cccc(F)c2)ccn1 |  | MIC |  |  | CNCTC MY331/88 |  |  | 61.66 µM |
| Cc1cccc(C(=S)Nc2ccc(C(C)C)cc2)c1 |  | MIC |  |  | My 331/88 |  |  | 32 µM |
| COc1ccc(C2OC3=C(Nc4ccc([N+](=O)[O-])cc4N3)C2=O)cc1 | BACTEC | inhibition | 12.5 µg/mL |  | H37Rv |  |  | -10% |
| COc1ccc(N(Cc2cc3ccccc3nc2Cl)C(N)=S)cc1 |  | MIC |  |  | H37Ra |  |  | >400 µg/mL |
| Cc1cc(C)cc(OCCCON2C(N)=NC(N)=NC2(C)C)c1 | resazurin / fluorescence | MIC90 |  |  | H37Rv | Overexpressing DHFR |  | 15.6 µM |
| CC(=O)OCC1=C(C(=O)O)N2C(=O)[C@@H](NC(=O)Cc3cccs3)[C@H]2SC1 |  | MIC |  |  | H37Ra |  |  | 32 µg/mL |
| CNC(=S)N(Cc1cc2ccccc2nc1Cl)c1ccc(F)cc1 |  | MIC |  |  | H37Ra |  |  | 100 µg/mL |
| O=C1OCC2OC(=O)c3cc(O)c(O)c(O)c3-c3c(O)c(O)c(O)c4c3C(=O)OC(C2OC(=O)c2cc(O)c(O)c(O)c2-c2c1cc(O)c(O)c2O)C1OC(=O)c2c-4c(O)c(O)c(O)c2[C@H]1O | BACTEC | MIC bound |  |  | H37Rv |  |  | >12.5 µg/mL |
| S=C(Nc1ccc(C2CCCCC2)cc1)c1ccccc1 |  | MIC |  |  | My 331/88 |  |  | 32 µM |
| O=C1c2cc3c(-c4ccccc4)oc(-c4ccccc4)c3cc2C(=O)c2c(O)ccc(O)c21 | BACTEC | MIC bound |  |  | H37Rv |  |  | >12.5 µg/mL |
| CC1(C)N=C(N)N=C(N)N1OCCc1ccc2ccccc2c1 | resazurin / fluorescence | MIC90 |  |  | H37Rv | Overexpressing DHFR |  | 11.7 µM |
| CCn1cc(C(=O)O)c(=O)c2cc(F)c(N3CCN(CC(=O)c4ccc(C)cc4)CC3)cc21 |  | MIC |  |  | H37Rv |  |  | >6.25 µg/mL |
| C[C@H](O)[C@H]1C(=O)N2C(C(=O)O)=C(S[C@@H]3CN[C@H](C(=O)N(C)C)C3)[C@H](C)[C@H]12 |  | MIC |  |  | H37Ra |  |  | 8 µg/mL |
| CC(C(=O)n1ccnc1)N1c2ccccc2Sc2ccccc21 | BACTEC | MIC bound |  |  | H37Rv |  |  | >12.5 µg/mL |
| O=C(NCCOc1ccc(Cl)cc1)c1cc([N+](=O)[O-])cc(C(F)(F)F)c1 | resazurin | MIC90 |  |  | H37Rv |  |  | 1 µg/mL |
| CCn1cc(C(=O)O)c(=O)c2cc(F)c(N3CCN(CC(=O)c4ccc(Br)cc4)CC3)nc21 |  | MIC |  |  | H37Rv |  |  | >6.25 µg/mL |
| O=C1C(O)[C@@H](O)C(=O)N1Cc1ccccc1 | resazurin | inhibition | 6.25 µg/mL |  | H37Rv |  |  | -14% |
| Cc1cccc(CSc2ccnc(C(N)=S)c2)c1 |  | MIC |  |  | CNCTC MY331/88 |  |  | 7.94 µM |
| CCn1cc(C(=O)O)c(=O)c2cc(F)c(N3CCN(CC(=O)c4ccc(F)cc4)CC3)nc21 |  | EC50 |  |  | H37Rv |  |  | >6.25 µg/mL |
| C[C@H]1CC[C@@]2(NC1)O[C@H]1C[C@H]3[C@@H]4CC=C5C[C@@H](O[C@@H]6O[C@H](CO)[C@H](O)[C@H](O[C@@H]7O[C@H](CO)[C@@H](O)[C@H](O)[C@H]7O)[C@H]6O[C@@H]6O[C@@H](C)[C@H](O)[C@@H](O)[C@H]6O)CC[C@]5(C)[C@H]4CC[C@]3(C)[C@H]1[C@@H]2C | BACTEC | inhibition | 12.8 µg/mL |  | H37Rv |  |  | 10% |
| CCn1cc(C(=O)O)c(=O)c2cc(F)c(N3CCN(C/C(=N/O)c4ccc(OC)cc4)CC3)cc21 |  | MIC |  |  | H37Rv |  |  | >6.25 µg/mL |
| CCN1CCN(CC)C1=S | BACTEC | MIC bound |  |  | H37Rv |  |  | >12.5 µg/mL |
| CCc1nc2c(F)cc(F)cn2c1C(=O)NCc1ccc(N2CCN(S(=O)(=O)C(F)(F)F)C=N2)c(F)c1 | fluorescence | EC50 |  |  |  |  |  | 0.0038 µM |
| NNC(=O)c1ccncc1 |  | MIC |  |  | H37Rv |  |  | 0.03 µg/mL |
| CCOC(=O)Cn1nc2oc(=O)c(CCN3CCN(c4ccccc4OC)CC3)c(C)c2c1C | resazurin | MIC bound |  |  | H37Rv |  |  | >6.25 µg/mL |
| COc1ccccc1OCCNC(=O)c1cc([N+](=O)[O-])cc(C(F)(F)F)c1 | resazurin | MIC90 |  |  | H37Rv |  |  | 2 µg/mL |